According to patent publication US8193372B2, “Phosphothiophene and phosphothiazole HCV polymerase inhibitors” (Idenix Pharmaceuticals, Inc., priority 2009, dated 2012):

What was measured:
[1] = tested on: Huh-7 cells containing HCV Con1 subgenomic replicon (GS4.1 cells); experiment: Cytotoxicity (CC50) reported with the HCV replicon ELISA assay; conditions: Tables 1 and 2
[2] = tested on: HCV Con1 subgenomic replicon of genotype 1b (GS4.1 cells); experiment: HCV Replicon ELISA Assay; type: cell-based, HCV genotype 1b; conditions: for EC50: GS4.1 cells, 72 hr, NS4A ELISA; for IC50: Tables 1 and 2, from % inhibition versus concentration data
[3] = tested on: Huh-7-derived cell line (Zluc) that harbors an HCV genotype 1b replicon and a luciferase reporter gene; experiment: HCV Replicon Assay in Human Serum; type: cell-based; conditions: Zluc cells, 10% fetal bovine serum (reference), three days

Question: Which results are given for “5-Thiazolecarboxylic methyl ester, 4-N-[(2,4-dimethyl-phenyl)-phosphonamidate methyl ester]-2-[4-chloro-phenyl]”?
Answer: CC50 [1]: > 8.3 µM; EC50 [2]: > 8.3 µM; IC50 [2]: 0.1 to 8.3 µM

Question: What does the source list for `COP(=O)(Nc1nc(-c2ccccc2)sc1C(=O)O)c1ccc(C)cc1C` (centres unmarked)?
Answer: CC50 [1]: > 8.3 µM; EC50 [2]: > 8.3 µM; IC50 [2]: 0.1 to 8.3 µM

Question: For `COP(=O)(Nc1nc(-c2ccc(-c3cc4ncccc4o3)cc2)sc1C(=O)O)c1ccc(C)cc1C` (centres unmarked), which CC50 [1] is on record?
Answer: > 8.3 µM

Question: And the EC50 [2]?
Answer: < 0.1 µM

Question: What about the IC50 [2] of the same molecule?
Answer: < 0.1 µM

Question: And the EC50 [3]?
Answer: < 0.1 µM

Question: For `COP(=O)(Nc1nc(-c2ccc(-c3cc4ccccc4o3)cc2)sc1C(=O)O)c1ccc(C)cc1C` (centres unmarked), which CC50 [1] is on record?
Answer: 0.1 to 8.3 µM

Question: What about the EC50 [2] of the same molecule?
Answer: < 0.1 µM

Question: What about the IC50 [2] of the same molecule?
Answer: < 0.1 µM

Question: What does the source list for `COP(=O)(Nc1nc(-c2ccc(-c3cc4ncccn4n3)cc2)sc1C(=O)O)c1ccc(C)cc1C` (centres unmarked)?
Answer: CC50 [1]: > 8.3 µM; EC50 [2]: < 0.1 µM; IC50 [2]: < 0.1 µM; EC50 [3]: < 0.1 µM

Question: For `COc1ccc(-c2nc(NP(=O)(OC)c3ccc(C)cc3C)c(C(=O)O)s2)cc1` (centres unmarked), which CC50 [1] is on record?
Answer: > 8.3 µM

Question: And the EC50 [2]?
Answer: > 8.3 µM

Question: What about the IC50 [2] of the same molecule?
Answer: 0.1 to 8.3 µM
